In test [1] the test system is Human immunodeficiency virus 1. Nature of the test: Antiviral activity against HIV1 harboring integrase T125K and […] double mutant relative to wild type. Format: functional.
In test [2] the test system is Human immunodeficiency virus 1. The test is described as follows: Antiviral activity against HIV1 harboring integrase N155S mutant relative to wild type. Format: functional.

For the molecule `Cc1nnc(C(=O)NC(C)(C)c2nc(C(=O)NCc3ccc(F)cc3)c(O)c(=O)n2C)o1`, the “Ratio IC50” value in test [1] is on record as 8; in test [2], 10.

Source of the values: ChEMBL document CHEMBL1221284, “Development of 2-pyrrolidinyl-N-methyl pyrimidones as potent and orally bioavailable HIV integrase inhibitors” (Bioorg Med Chem Lett, 2010).
